{
  "sequences": {"note": "Chains of the proteins cited; added tags and fusions are not shown.", "UniProt P00811, whole entry": "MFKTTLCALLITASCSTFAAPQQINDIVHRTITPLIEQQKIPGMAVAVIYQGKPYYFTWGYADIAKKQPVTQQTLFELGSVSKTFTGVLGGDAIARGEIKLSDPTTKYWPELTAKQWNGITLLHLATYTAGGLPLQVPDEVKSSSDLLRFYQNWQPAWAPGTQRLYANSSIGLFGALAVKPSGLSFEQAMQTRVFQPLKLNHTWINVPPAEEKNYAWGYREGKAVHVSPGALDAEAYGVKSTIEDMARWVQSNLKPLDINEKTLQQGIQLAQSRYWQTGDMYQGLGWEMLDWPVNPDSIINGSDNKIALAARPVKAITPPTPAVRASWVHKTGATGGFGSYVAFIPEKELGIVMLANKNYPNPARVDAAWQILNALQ"},
  "source": "PubChem BioAssay AID485341",
  "about": "(National Center for Advancing Translational Sciences (NCATS), 2010)",
  "note": "The list shows a part of the results, in another mix than the full data. Activity calls are given as the source filed them. Calls follow the shape of the dose curve; as a rule, active = well fitted inhibition curve with a large enough effect; inconclusive = small, poorly fitted or top-dose-only effect; inactive = no such curve, though single readings can be large or run the other way.",
  "data": [
    {"target": "Beta-lactamase (Escherichia coli (strain K12)) (UniProt P00811)", "test": "qHTS Inhibitors of AmpC Beta-Lactamase (assay without detergent); also: nearly all actives have a fitted effect of over 20% in size", "details": "AmpC nitrocefin hydrolysis, absorbance 480 nm, 0.0001% Triton; series mostly up to 57.1 µM", "method": "NIH Molecular Libraries Probe Production Network [MLPCN] NIH Chemical Genomics Center [NCGC] Assay Provider: Professor Brian Shoichet, UCSF Assay Overview: This aggregation profiling approach exploits the sensitivity of aggregate formation to detergent. Inhibition of b-lactamase is measured in the presence and absence of 0.01% Triton X-100. This particular assay had the prescence of 0.01% Triton X-100. See Pubchem assay \"Promiscuous and Specific Inhibitors of AmpC Beta-Lactamase (assay without detergent)\" for related screen. Compounds that inhibit only in the absence of detergent are considered likely promiscuous aggregators. A screen of 1,030 compounds was performed in Brian Shoichet's lab in 96-well format. AmpC activity was measured by following the absorbance at 480 nm. Nitrocefin is a chromogenic substrate: while nitrocefin is yellow (lmax 390 nm), the product of its hydrolysis is red (lmax 486 nm, 17,000 M-1). AmpC beta lactamase was provided by Shoichet Lab, UCSF.\nBuffer: 20 mM phosphate buffer, pH 7.0 Triton X-100: No Detergent screen: 0.0001%, Detergent screen: 0.01%. Reagents/Controls: Buffer in columns 3 and 4 as negative control (no enzyme). 5.3 nM AmpC in columns 1, 2, 5-48. Titration of UCSF compound 9 control (from 10 mM, then 1:2) pin-transferred to column 2. Column 1 is neutral (100% activity). Assay Steps: Six uL of reagents were dispensed to 1536-well Greiner black clear bottom plates. Compounds and controls (23 nL) were transferred via Kalypsys PinTool. The plates were incubated for 15 min at room temperature, and then 2 uL of 800 uM solution of nitrocefin was added to start the reaction. The plates were immediately transferred to and read every 20 seconds for 4 min on ViewLux (Perkin-Elmer) High-throughput CCD imager using 480 nm absorbance protocol. During dispense, reagent bottles were kept submerged into 4 deg C water bath. Keywords: NIH Roadmap, MLSCN, MLI, MLSMR, qHTS, NCGC, AmpC Beta-Lactamase, Aggregation", "values": [
      {"smiles": "CC1=NCCc2c1[nH]c1ccccc21.O=[N+]([O-])c1cc([N+](=O)[O-])c(O)c([N+](=O)[O-])c1", "activity change, negative = inhibition": "inactive"},
      {"smiles": "CCOC(=O)c1ccc(NP(C)(=O)Oc2cc(C)cc(C)c2)cc1", "note": "(stereo not given)", "activity change, negative = inhibition": "inactive"},
      {"smiles": "Cc1cc(C)cc(OP(C)(=O)Nc2ccc(C)cc2C)c1", "note": "(stereo not given)", "activity change, negative = inhibition": "inactive"},
      {"smiles": "COc1ccccc1OP(C)(=O)Nc1cccc(Br)c1", "note": "(stereo not given)", "activity change, negative = inhibition": "inactive"},
      {"smiles": "Cc1ccc(C)c(NP(C)(=O)Oc2ccccc2)c1", "note": "(stereo not given)", "activity change, negative = inhibition": "inactive"},
      {"smiles": "Cc1cc(C)cc(OP(C)(=O)Nc2ccccn2)c1", "note": "(stereo not given)", "activity change, negative = inhibition": "inactive"},
      {"smiles": "CP(=O)(Nc1cccc(Br)c1)Oc1ccccc1", "note": "(stereo not given)", "activity change, negative = inhibition": "inactive"},
      {"smiles": "O=[N+]([O-])c1cc([N+](=O)[O-])c(-n2nnc3ccccc32)c([N+](=O)[O-])c1", "activity change, negative = inhibition": "inactive: -11.2% [at 11.4 µM]"},
      {"smiles": "Cc1nc2ccc3ccccc3c2s1.O=[N+]([O-])c1cc([N+](=O)[O-])c(O)c([N+](=O)[O-])c1", "activity change, negative = inhibition": "inactive"},
      {"smiles": "CC1=C2N=C(C=C3N=C(C(C)=C4[N-][C@@](C)([C@@H]5N=C1[C@](C)(CCC(=O)NC[C@@H](C)OP(=O)([O-])O[C@H]1[C@@H](O)[C@@H](n6cnc7cc(C)c(C)cc76)O[C@@H]1CO)[C@H]5CC(N)=O)[C@@](C)(CC(N)=O)[C@@H]4CCC(N)=O)[C@@](C)(CC(N)=O)[C@@H]3CCC(N)=O)C(C)(C)[C@@H]2CCC(N)=O.[C-]#N.[Co+3]", "activity change, negative = inhibition": "inactive"},
      {"smiles": "O=[N+]([O-])c1cc([N+](=O)[O-])c(Nc2nnnn2CCO)c([N+](=O)[O-])c1", "activity change, negative = inhibition": "inactive"},
      {"smiles": "CCCOc1ccc(NP(C)(=O)Oc2ccc(Cl)cc2)cc1", "note": "(stereo not given)", "activity change, negative = inhibition": "inactive: -10.4% [at 11.4 µM]"},
      {"smiles": "CP(=O)(Nc1ccc(SC(F)(F)F)cc1)Oc1ccccc1", "note": "(stereo not given)", "activity change, negative = inhibition": "inactive"},
      {"smiles": "COc1ccccc1OP(C)(=O)Nc1c(C)cccc1C", "note": "(stereo not given)", "activity change, negative = inhibition": "inactive"},
      {"smiles": "CN1CCCCC1COC(=O)C1(O)c2ccccc2CCc2ccccc21", "note": "(stereo not given)", "activity change, negative = inhibition": "inactive"},
      {"smiles": "CP(=O)(Nc1ccccc1Br)Oc1ccccc1", "note": "(stereo not given)", "activity change, negative = inhibition": "inactive"},
      {"smiles": "COc1ccccc1OP(C)(=O)Nc1ccccc1", "note": "(stereo not given)", "activity change, negative = inhibition": "inactive"},
      {"smiles": "CP(=S)(Nn1cnnc1)Oc1ccccc1", "note": "(stereo not given)", "activity change, negative = inhibition": "inactive"},
      {"smiles": "CP(=O)(NC(=O)Nc1ccccc1)Oc1ccccc1", "note": "(stereo not given)", "activity change, negative = inhibition": "inactive"},
      {"smiles": "CCc1ccc(OP(C)(=O)N2CCN(c3ccc([N+](=O)[O-])cc3)CC2)cc1", "note": "(stereo not given)", "activity change, negative = inhibition": "inactive"},
      {"smiles": "Cc1cc(C)cc(OP(C)(=O)Nc2ccc(SC(F)(F)F)cc2)c1", "note": "(stereo not given)", "activity change, negative = inhibition": "inactive"},
      {"smiles": "Cc1cccc(C)c1OP(C)(=O)Nc1ccc(SC(F)(F)F)cc1", "note": "(stereo not given)", "activity change, negative = inhibition": "inactive"},
      {"smiles": "CP(=O)(Nc1ccc(SC(F)(F)F)cc1)Oc1ccc(Cl)cc1", "note": "(stereo not given)", "activity change, negative = inhibition": "inactive"},
      {"smiles": "CP(=O)(Oc1ccccc1)OC(c1ccccc1)C(F)(F)F", "note": "(stereo not given)", "activity change, negative = inhibition": "inactive"},
      {"smiles": "CCOC(=O)c1ccc(NP(C)(=O)Oc2ccc(OC)cc2)cc1", "note": "(stereo not given)", "activity change, negative = inhibition": "inactive"}
    ]}
  ]
}
